Assay results reported in ChEMBL document CHEMBL1154750 (J Med Chem, 2010).

Target: Neuraminidase (Influenza A virus, UniProt B4URF0)
Assay: Inhibition of oseltamivir-resistant Influenza Virus A/342/0 (H1N1) neuraminidase at 100 nM; call rule not given here

**Q.** Which IC50 does the source give for `CCOC(=O)C1=C[C@@H](OC(CC)CC)[C@H](NC(C)=O)[C@@H](N)C1` here?
**A.** Not Active
